Measured values from several laboratories, pooled; numbers as filed in NIAID ChemDB.

Common to all: whole-cell or culture tests; agent: Candida tropicalis

MIC50, MIC90 and the like: level of inhibition, or share of isolates inhibited.

c1ccc(C(c2ccccc2)n2ccnc2)cc1 ; read by: broth dilution ; read-out: MFC ; result: 64 µg/mL
Cc1ccc(C(CCn2ccnc2)OC(=O)c2ccc(Cl)cc2)cc1 ; tested at: 1000 µg ; read by: agar diffusion ; read-out: zone ; result: 16 mm
c1ccc(-c2ccc(CNC(Cn3ccnc3)c3ccccc3)cc2)cc1 ; cells: VERO ; read-out: EC50 ; strain: CBS 94 CA 44 CA 14 ; result: 12 µg/mL
CC(C)CC(O)C(=O)O ; read by: broth dilution ; read-out: EC50 ; strain: ATCC 750 ; result: 18000 µg/mL
CC(=O)N1CCN(c2ccc(OC[C@H]3CO[C@](Cn4ccnc4)(c4ccc(Cl)cc4Cl)O3)cc2)CC1 ; tested at: 20 mg/mL ; read by: agar diffusion / agar ; read-out: zone ; strain: T2 ; result: 10 mm
Clc1ccc(C(c2ccccc2)n2ccnc2)cc1 ; read by: broth dilution ; read-out: MFC ; result: 0.5 µg/mL
Cc1ccc(C(O)c2cccc(C(O)CCn3ccnc3)c2)cc1 ; read by: broth dilution ; read-out: MIC ; strain: RTCC 1095 ; result: >64 µg/mL
Nc1[nH]c(=O)nc2nc(-c3ccccn3)c(-c3ccccn3)nc12 ; tested at: 500 mg/mL ; read-out: zone ; result: 26 mm
Clc1ccc(C(c2ccccc2)N2CCN(CCn3cncn3)CC2)cc1 ; read by: broth dilution ; read-out: MFC ; result: 32 µg/mL
C=CC(C)(C)c1cc(C2CC(=O)c3c(cc(O)c(CC=C(C)C)c3O)O2)c(O)cc1O ; tested at: 2 mg/mL ; read by: agar diffusion / agar ; read-out: zone ; strain: hemoculture isolate 16819 ; result: 14 mm
O=C(OC(CCn1ccnc1)c1ccccc1)c1ccc(F)cc1 ; tested at: 1000 µg ; read by: agar diffusion ; read-out: zone ; result: 16 mm
O=c1ncc2nc(-c3ccccn3)c(-c3ccccn3)nc2[nH]1 ; tested at: 500 mg/mL ; read-out: zone ; result: 27 mm
Nc1ncccc1-c1cc(Cc2ccc(COc3ccccn3)cc2)no1 ; read by: broth dilution ; read-out: MIC50 ; result: 0.016 µg/mL
O=C(/C=C/c1cccc(F)c1)OC1CCN(CC(O)(Cn2cncn2)c2ccc(F)cc2F)CC1 ; read by: broth dilution ; read-out: MIC80 ; result: 0.129 µM
O=C(OC(CCn1ccnc1)c1ccccc1)c1cccnc1 ; tested at: 1000 µg ; read by: agar diffusion ; read-out: zone ; result: 16 mm
O=c1[nH]c(=O)c2nc(-c3ccccn3)c(-c3ccccn3)nc2[nH]1 ; tested at: 500 mg/mL ; read-out: zone ; result: 21 mm
OC(CCn1ccnc1)c1cccc(C(O)c2ccc(Cl)cc2)c1 ; read by: broth dilution ; read-out: MIC ; strain: RTCC 1065 ; result: >64 µg/mL
O=c1[nH]cnc2nc(-c3ccccn3)c(-c3ccccn3)nc12 ; tested at: 500 mg/mL ; read-out: zone ; result: 30 mm
O=C(c1ccccc1)C(c1ccccc1)n1cncn1 ; read by: broth dilution ; read-out: MFC ; result: 128 µg/mL
OC(CCn1ccnc1)c1ccc(-c2ccccc2)cc1 ; read by: broth dilution ; read-out: MIC ; strain: RTCC 1095 ; result: >64 µg/mL
Clc1ccc(C(Cn2ccnc2)NCc2ccc(-c3ccccc3)cc2)c(Cl)c1 ; cells: VERO ; read-out: EC50 ; strain: CBS 94 CA 44 CA 14 ; result: 6 µg/mL
COc1ccc(C=O)cc1OCC(O)(Cn1cncn1)c1ccc(F)cc1F ; read by: broth dilution ; read-out: MIC50 ; strain: ATCC 750 ; result: 128 µg/mL
OC(Cn1cncn1)(Cn1cncn1)c1ccc(F)cc1F ; setting: 48 h ; read-out: MIC50 ; strain: 65 isolates ; result: 3.2 µg/mL
Cc1ccc(-c2c3c(N)c4c(nc3nc3c2c(C)nn3-c2ccccc2)CCCCC4)cc1 ; read by: broth dilution / absorbance ; read-out: MIC50 ; strain: CCC 131 ; result: 62.5 µg/mL
O=C1C2=C(OC(CI)C2)C(=O)c2ccccc21 ; read by: broth dilution ; read-out: MIC ; strain: Clinical isolate ; result: 32 µg/mL
Clc1ccc(C(Cn2ccnc2)NCc2cccc3ccccc23)cc1 ; cells: VERO ; read-out: EC50 ; strain: CBS 94 CA 44 CA 14 ; result: 12 µg/mL
O=C(OC(CCn1ccnc1)c1ccc(Cl)cc1)c1ccc(Cl)cc1 ; tested at: 1000 µg ; read by: agar diffusion ; read-out: zone ; result: 14 mm
CCC(C)CC(C)CCCCCCCCC(=O)N[C@H]1C[C@@H](O)[C@H](NCCN)NC(=O)[C@@H]2[C@@H](O)CCN2C(=O)[C@H]([C@H](O)CCN)NC(=O)[C@H]([C@H](O)[C@@H](O)c2ccc(O)cc2)NC(=O)[C@@H]2C[C@@H](O)CN2C(=O)[C@H]([C@@H](C)O)NC1=O ; read-out: Mean MIC ; strain: 20 isolates ; result: 0.54 µg/mL
C[C@H]1[C@H](O)[C@@H](C)/C=C/C=C/C=C/C=C/C=C/C=C/C=C/[C@H](O[C@@H]2O[C@H](C)[C@@H](O)[C@H](N)[C@@H]2O)C[C@@H]2O[C@](O)(C[C@@H](O)C[C@@H](O)CC[C@H](O)[C@@H](O)C[C@@H](O)CC(=O)O[C@H]1C)C[C@H](O)[C@H]2C(=O)O ; read by: broth dilution / absorbance ; read-out: MIC99 ; strain: ATCC 750 ; result: 0.78 µM
Cc1ccc(-c2c3c(N)c4c(nc3nc3c2c(C)nn3-c2ccccc2)CCC4)cc1 ; read by: broth dilution / absorbance ; read-out: MIC50 ; strain: CCC 131 ; result: 62.5 µg/mL
Cc1ccc(/C=N/Nc2ccnc3cc(Cl)ccc23)cc1 ; read-out: MFC ; result: 80 µg/mL
CC(C)C(=O)OC1CCN(CC(O)(Cn2cncn2)c2ccc(F)cc2F)CC1 ; read by: broth dilution ; read-out: MIC80 ; result: 0.612 µM
CO[C@@H]1C(COC(=O)CCC(=O)O)=CC2C(=O)O[C@H]3C[C@@H](C/C=C(\C)C[C@@H](C)/C=C/C=C4\CO[C@H]1[C@@]42O)O[C@@]1(CC[C@H](C)[C@@H](C)O1)C3 ; read-out: MFC ; strain: FA1572 ; result: >0.5 µg/mL
CN[C@H]1CC[C@@H](c2ccc(Cl)c(Cl)c2)c2ccccc21 ; read by: broth dilution ; read-out: MFC ; strain: MMRL2017 ; result: 32 µg/mL
C[C@H]1[C@H](O)[C@@H](C)/C=C/C=C/C=C/C=C/C=C/C=C/C=C/[C@H](O[C@@H]2O[C@H](C)[C@@H](O)[C@H](N)[C@@H]2O)C[C@@H]2O[C@](O)(C[C@@H](O)C[C@@H](O)CC[C@H](O)[C@@H](O)C[C@@H](O)CC(=O)O[C@H]1C)C[C@H](O)[C@H]2C(=O)O ; tested at: 100 µg/disc ; read by: agar diffusion ; read-out: zone ; strain: Ct1 ; result: 18 mm
C[C@H]1[C@H](O)[C@@H](C)/C=C/C=C/C=C/C=C/C=C/C=C/C=C/[C@H](O[C@@H]2O[C@H](C)[C@@H](O)[C@H](N)[C@@H]2O)C[C@@H]2O[C@](O)(C[C@@H](O)C[C@@H](O)CC[C@H](O)[C@@H](O)C[C@@H](O)CC(=O)O[C@H]1C)C[C@H](O)[C@H]2C(=O)O ; read-out: MIC50 ; strain: 10 isolates ; result: 0.2 µg/mL
CC[C@@H]([C@H](C)O)n1ncn(-c2ccc(N3CCN(c4ccc(OC[C@@H]5CO[C@@](Cn6cncn6)(c6ccc(F)cc6F)C5)cc4)CC3)cc2)c1=O ; read by: broth dilution ; read-out: MIC ; strain: 8684 ; result: 0.03 µg/mL
O=C1O/C(=C\c2ccc(OCC(O)(Cn3cncn3)c3ccc(F)cc3F)cc2)C(c2ccc(F)cc2F)=C1c1ccc(Cl)cc1 ; read by: broth dilution ; read-out: MIC50 ; strain: ATCC 750 ; result: 4 µg/mL
O=C(CCl)OC1CCN(CC(O)(Cn2cncn2)c2ccc(F)cc2F)CC1 ; read by: broth dilution ; read-out: MIC80 ; result: 2.415 µM
OC(CNCCCOc1ccc(Br)cc1)(Cn1cncn1)c1ccc(F)cc1F ; read-out: EC80 ; result: <0.125 µg/mL
CC1CC(=O)N(c2ccccc2)C1=O ; read by: broth dilution / turbidity ; read-out: MIC ; strain: CCC 131-2000 ; result: 125 µg/mL
c1ccc(C(c2ccccc2)n2cnc3ccccc32)cc1 ; read by: broth dilution ; read-out: MFC ; result: >256 µg/mL
COc1ccc(N2C(=O)CC(C)C2=O)cc1 ; read by: broth dilution / turbidity ; read-out: MIC ; strain: CCC 131-2000 ; result: 125 µg/mL
CC(=O)OC[C@H]1O[C@@H](O[C@@H]2[C@@H](N=[N+]=[N-])[C@H](O)[C@H](O)[C@H]3OC(C)(C)O[C@H]32)[C@H](OC(C)=O)[C@@H](OC(C)=O)[C@H]1OC(C)=O ; tested at: 62.5 µg/mL ; read by: broth dilution / turbidity ; read-out: inhibition ; strain: C 131 ; result: 17.39%
C[C@@H](c1ncncc1F)[C@](O)(Cn1cncn1)c1ccc(F)cc1F ; read by: broth dilution ; read-out: MIC50 ; result: >4 µg/mL
O=C(c1ccccc1)C(c1ccccc1)n1nnc2ccccc21 ; read by: broth dilution ; read-out: MFC ; result: >256 µg/mL
COc1ccc(C(CCn2ccnc2)OC(=O)c2ccc(Cl)cc2)cc1 ; tested at: 1000 µg ; read by: agar diffusion ; read-out: zone ; result: 14 mm
CCCCCCCCCCCCCCCCn1cc[n+](C)c1 ; read by: broth dilution ; read-out: MIC ; strain: 102A ; result: 0.014 µg/mL
CCOc1ccc2nc3cc(N=C4NC(=O)/C(=C\C=C\c5ccc([N+](=O)[O-])o5)S4)ccc3c(N)c2c1 ; read by: broth dilution ; read-out: MFC ; strain: ATCC 8302 ; result: 1000 µg/mL
O=C(OC(CCn1ccnc1)c1ccccc1)c1ccncc1 ; tested at: 1000 µg ; read by: agar diffusion ; read-out: zone ; result: 19 mm
C[C@H]1[C@H](O)[C@@H](C)/C=C/C=C/C=C/C=C/C=C/C=C/C=C/[C@H](O[C@@H]2O[C@H](C)[C@@H](O)[C@H](N)[C@@H]2O)C[C@@H]2O[C@](O)(C[C@@H](O)C[C@@H](O)CC[C@H](O)[C@@H](O)C[C@@H](O)CC(=O)O[C@H]1C)C[C@H](O)[C@H]2C(=O)O ; read by: broth dilution ; read-out: MFC ; strain: MTCC 1406 ; result: 1 µg/mL
C=CCc1ccc(O)c(OC)c1 ; read by: turbidity ; read-out: MIC90 ; strain: 2480 ; result: 485 µg/mL
O=C(/C=C/c1cccc(Cl)c1)OC1CCN(CC(O)(Cn2cncn2)c2ccc(F)cc2F)CC1 ; read by: broth dilution ; read-out: MIC80 ; result: 0.498 µM
Nc1ncccc1-c1cc(Cc2ccc(COc3ccccn3)cc2)no1 ; read by: broth dilution ; read-out: MIC ; strain: 8664 ; result: 0.03 µg/mL
COc1cc(/C=C2\SC(=S)NC2=O)cc(OC)c1OCC(O)(Cn1cncn1)c1ccc(F)cc1F ; read by: broth dilution ; read-out: MIC50 ; strain: ATCC 750 ; result: 16 µg/mL
c1ccc(C(Cn2ccnc2)NCc2cccc3ccccc23)cc1 ; cells: VERO ; read-out: EC50 ; strain: CBS 94 CA 44 CA 14 ; result: 12 µg/mL
CSCC[C@H]1NC(=O)[C@H]2CCCN2C1=O ; tested at: 16 µg/mL ; read by: agar diffusion / agar ; read-out: zone ; strain: MTCC 184 ; result: 20 mm
CC1C(=O)N(Cc2ccccc2)C(=O)C1C ; read by: broth dilution / turbidity ; read-out: MIC ; strain: CCC 131-2000 ; result: 125 µg/mL

ECn is the concentration giving n% inhibition of infection, replication or growth. Inhibition is in % at the dose shown (toxicity tests: loss of growth or viability). Zone: diameter of growth inhibition. Neighbouring rows are from separate reports.